System: Mycobacterium tuberculosis
Assay: Binding affinity to Mycobacterium tuberculosis PanD assessed as change in enthalpy by isothermal titration calorimetry

Structure (SMILES)	deltaH
O=C(O)c1nccnc1Nc1ccccc1	-2.8 kcal/mol
CCCNc1nccnc1C(=O)O	-1.3 kcal/mol
O=C(O)c1cnccn1 [PYRAZINOIC ACID]	-10 kcal/mol
Nc1cnc(C(=O)O)cn1	-6.6 kcal/mol
Nc1nccnc1C(=O)O	-5.3 kcal/mol
